Anti-infective test results gathered from many reports (values: NIAID ChemDB through PubChem).

Common to all: tests in culture; species: Mycobacterium tuberculosis

Percent inhibition refers to the dose given; in toxicity tests it is the harm to the cells. Blank or dashed fields: not listed here. ECn: concentration that inhibits the pathogen or its effect by n%. MIC bound comes from a single tested concentration. Conditions beyond the fields shown may differ between rows. A number after MIC or MFC names an inhibition level or a share of isolates.

smiles,strain,cell line,read by,measure,dose,value
CCn1c(SCC(=O)N/N=C/c2ccc([N+](=O)[O-])cc2)nnc1-c1ccco1,H37Rv,-,-,EC50,-,>6.25 µg/mL
O=C(O)c1ccc[nH]c1=O,H37Rv ATTC 27294,-,broth dilution / resazurin,MIC90,-,>359.4 µM
Cc1ccccc1CNC(=O)c1nnc(-c2ccccn2)[nH]c1=O,H37Rv,-,-,MIC,-,8 µg/mL
CCN1C(=O)C(=O)N(CC)C1=S,B814,-,-,MIC,-,100 µg/mL
COc1cc(C)c2c(=O)c3c(oc2c1)C(=O)c1c(O)c(OC)cc(O)c1C3=O,H37Rv,-,-,MIC,-,12.5 µg/mL
NCCC[C@H](N)CC(=O)N[C@H]1CNC(=O)[C@H]([C@H]2C[C@H](O)NC(N)=N2)NC(=O)/C(=C/NC(N)=O)NC(=O)[C@H](CO)NC(=O)[C@H](CO)NC1=O,Isolate VIM-R/4,-,-,MIC,-,>40 µg/mL
O=C(O)/C=C/c1c2ccc(=O)cc-2oc2cc(O)ccc12,H37Rv,-,BACTEC,MIC bound,-,>12.5 µg/mL
C[C@@H]1CN(c2c(F)c(N)c3c(=O)c(C(=O)O)cn(C4CC4)c3c2F)C[C@H](C)N1,S-3M (susceptible),-,-,MIC,-,0.2 µg/mL
CCCCOCCO/N=C/c1c2c(O)c3c(O)c(C)c4c(c3c1O)C(=O)[C@@](C)(O/C=C/[C@H](OC)[C@@H](C)[C@@H](OC(C)=O)[C@H](C)[C@H](O)[C@H](C)[C@@H](O)[C@@H](C)/C=C/C=C(/C)C(=O)N2)O4,H37Rv,-,-,MIC,-,0.2 µg/mL
CO[C@H]1/C=C/O[C@@]2(C)Oc3c(C)c(O)c4c(O)c(c5c(c4c3C2=O)NC2(CCN(CC(C)C)CC2)N=5)=NC(=O)/C(C)=C\C=C\[C@H](C)[C@H](O)[C@@H](C)[C@@H](O)[C@@H](C)[C@H](OC(C)=O)[C@@H]1C,3181-4,-,-,MBC,-,0.125 µg/mL
O=C(NCc1cccc(C(F)(F)F)c1)c1nnc(-c2ccccn2)[nH]c1=O,H37Rv,-,-,MIC,-,32 µg/mL
NNC(=O)c1cc(C2CCCCC2)nc2ccccc12,H37Ra,-,BACTEC,inhibition,6.25 µg/mL,2%
COc1ccc(OC)c(Cc2cnc3nc(N)nc(N)c3c2C)c1,H37Rv,VERO,-,MIC,-,3.13 µg/mL
[Cl][Ru][Cl].c1ccc(-c2ccccn2)nc1.c1ccc([PH+](CCCC[PH+](c2ccccc2)c2ccccc2)c2ccccc2)cc1,H37Rv ATTC 27294,-,broth dilution / resazurin,MIC90,-,5.1 µM
CN1C(=O)C(=O)N(C)C1=[Se],B814,-,-,MIC,-,10 µg/mL
CCOC(=O)C1=C(C(=O)c2ccc(OC)cc2)C(c2ccc([N+](=O)[O-])cc2)C(C(=O)c2ccc(OC)cc2)=C(C(=O)OCC)N1,H37Rv,-,BACTEC,MIC bound,-,>12.5 µg/mL
C#CCNCCCNc1ccnc2cc(Cl)ccc12,H37Rv,-,resazurin,MIC,-,15.6 µg/mL
NNC(=O)Cc1cc(C2CCCC2)nc2c(C3CCCC3)cccc12,H37Ra,-,BACTEC,inhibition,6.25 µg/mL,67%
NCCc1c(-c2cccnc2)[nH]c2ccccc12,H37Rv,-,BACTEC,inhibition,6.25 µg/mL,0%
NNC(=O)c1ccc2ccccc2n1,H37Ra,-,BACTEC,MIC,-,>6.25 µg/mL
O=C(/C=C/c1cccc(F)c1)NNC(=O)c1ccncc1,H37Rv,-,resazurin,MIC,-,72.6 µM
CC(C)OC(=O)Nc1c(C#N)[n+]([O-])c2cc(Cl)c(Cl)cc2[n+]1[O-],H37Rv,-,-,MIC,-,<12.5 µg/mL
O=C(/C=C/c1cccc(Cl)c1)NNC(=O)c1ccncc1,H37Rv,-,resazurin,MIC,-,83 µM
CCN(CC)CCNC(=O)Nc1c(C#N)[n+]([O-])c2cc(F)ccc2[n+]1[O-],H37Rv,-,-,MIC,-,<12.5 µg/mL
CCn1c(SCC(=O)N/N=C/c2ccc(OC)cc2)nnc1-c1ccco1,H37Rv,-,-,MIC,-,>6.25 µg/mL
CCCCCCCO/N=C/c1c2c(O)c3c(O)c(C)c4c(c3c1O)C(=O)[C@@](C)(O/C=C/[C@H](OC)[C@@H](C)[C@@H](OC(C)=O)[C@H](C)[C@H](O)[C@H](C)[C@@H](O)[C@@H](C)/C=C/C=C(/C)C(=O)N2)O4,H37Rv,-,-,MIC,-,2 µg/mL
CN1C(=S)NC(C)(C)C1=S,B814,-,-,MIC,-,100 µg/mL
CN(C)c1cc2nc(C3CCCCC3)[nH]c2cc1NC(=O)c1ccc(OC(F)(F)F)cc1F,H37Rv,-,resazurin,MIC,-,0.31 µg/mL
CCOCCO/N=C/c1c2c(O)c3c(O)c(C)c4c(c3c1O)C(=O)[C@@](C)(O/C=C/[C@H](OC)[C@@H](C)[C@@H](OC(C)=O)[C@H](C)[C@H](O)[C@H](C)[C@@H](O)[C@@H](C)/C=C/C=C(/C)C(=O)N2)O4,H37Rv,-,-,MIC,-,0.2 µg/mL
NCCCC(N)CC(=O)NCC1NC(=O)C(CO)NC(=O)C(NC(=O)CC(N)CCCN)CNC(=O)C(C2CCN=C(N)N2)NC(=O)/C(=C/NC(N)=O)NC1=O,H37RV (VIM-R),-,-,MIC,-,5 µg/mL
C=C1C(=O)O[C@@H]2C[C@@]3(C)CCC[C@H](C)C3=C[C@H]12,H37Rv,-,-,MIC,-,32 µg/mL
O=C(Nc1ccccc1)c1cc(C2C3CC4CC(C3)CC2C4)c2ccccc2n1,H37Ra,-,BACTEC,MIC,-,3.125 µg/mL
CCn1c(SCC(=O)NN)nnc1-c1ccco1,H37Rv,-,-,MIC,-,>6.25 µg/mL
C#CCNCCCCNc1ccnc2cc(Cl)ccc12,H37Rv,-,resazurin,MIC,-,15.6 µg/mL
Cc1ccc(NNC(=O)C(O)C(O)C(O)C(O)CO)cc1,H37Rv,-,BACTEC,inhibition,12.5 µg/mL,1%
N#Cc1c(N)[n+]([O-])c2ccc(F)cc2[n+]1[O-],H37Rv,-,-,MIC,-,<12.5 µg/mL
COc1ccccc1CNC(=O)c1nnc(-c2ccccn2)[nH]c1=O,H37Rv,-,-,MIC,-,32 µg/mL
C#CCNCCNc1ccnc2cc(Cl)ccc12,H37Rv,-,resazurin,MIC,-,15.6 µg/mL
N#Cc1c(N)[n+]([O-])c2ccc(C(F)(F)F)cc2[n+]1[O-],H37Rv,-,-,inhibition,6.25 µg/mL,99%
c1ccc2c(c1)CN1CCN=C1N2,H37Rv,-,resazurin,MIC bound,-,>6.25 µg/mL
NNC(=O)Cc1cc(C2CCCC2)nc2ccccc12,H37Ra,-,BACTEC,MIC,-,>6.25 µg/mL
CCCCCCCCCCCO/N=C/c1c2c(O)c3c(O)c(C)c4c(c3c1O)C(=O)[C@@](C)(O/C=C/[C@H](OC)[C@@H](C)[C@@H](OC(C)=O)[C@H](C)[C@H](O)[C@H](C)[C@@H](O)[C@@H](C)/C=C/C=C(/C)C(=O)N2)O4,H37Rv,-,-,MIC,-,50 µg/mL
O=c1ccc2cc3ccoc3c(O)c2o1,H37Rv,-,BACTEC,inhibition,12.5 µg/mL,15%
COc1c(N2CCNC(C)C2)c(F)cc2c(=O)c(C(=O)O)cn(C3CC3)c12,H37Rv ATTC 27294,-,broth dilution / resazurin,MIC90,-,0.9 µM
O=C1OC(=O)C2C1C(c1ccc([N+](=O)[O-])cc1)N1C3C(=O)OC(=O)C3C(c3ccc([N+](=O)[O-])cc3)N21,H37Rv,-,BACTEC,MIC bound,-,>12.5 µg/mL
Cn1ccn(C)c1=[Se],B814,-,-,MIC,-,>100 µg/mL
CC1COc2c(N3CCN(C)CC3)c(F)cc3c(=O)c(C(=O)O)cn1c23,3181-5,-,-,MIC,-,2 µg/mL
O=C(NCc1cccc(Br)c1)c1nnc(-c2ccccn2)[nH]c1=O,H37Rv,-,-,MIC,-,>32 µg/mL
CO/N=C/c1c2c(O)c3c(O)c(C)c4c(c3c1O)C(=O)[C@@](C)(O/C=C/[C@H](OC)[C@@H](C)[C@@H](OC(C)=O)[C@H](C)[C@H](O)[C@H](C)[C@@H](O)[C@@H](C)/C=C/C=C(/C)C(=O)N2)O4,H37Rv,-,-,MIC,-,0.05 µg/mL
NNC(=O)Cc1cc(C2CCCCC2)nc2c(C3CCCCC3)cccc12,H37Ra,-,BACTEC,inhibition,6.25 µg/mL,56%
Clc1ccc(-c2nnc3n2NC(c2ccccc2)S3)c(Cl)c1,H37Rv,-,BACTEC,inhibition,128 µg/mL,80%
NNC(=O)c1ccncc1,S-6M (susceptible),-,-,MIC,-,0.025 µg/mL
CC(=O)Nc1ccc(/C=N/NC(N)=S)cc1,Isolate E (drug-resistant),-,-,MBC,-,30 µg/mL
COc1cccc(CNC(=O)c2nnc(-c3ccccn3)[nH]c2=O)c1,H37Rv,-,-,MIC,-,32 µg/mL
CCOC(=O)/C(=C\c1c(C)[nH]c2ccccc12)P(=O)(OCC)OCC,H37Rv,-,BACTEC,inhibition,12.5 µg/mL,0%
NNC(=O)c1ccncc1,H37Rv,-,resazurin,MIC,-,22.3 µM
CO[C@H]1/C=C/O[C@@]2(C)Oc3c(C)c(O)c4c(O)c(c(/C=N/OCCCCOc5ccccc5)c(O)c4c3C2=O)NC(=O)/C(C)=C\C=C\[C@H](C)[C@H](O)[C@@H](C)[C@@H](O)[C@@H](C)[C@H](OC(C)=O)[C@@H]1C,H37Rv,-,-,MIC,-,0.5 µg/mL
CCN(CC)C(=O)c1cc(C2C3CC4CC(C3)CC2C4)c2ccccc2n1,H37Ra,-,BACTEC,inhibition,6.25 µg/mL,2%
Cc1ccc2nc(N)c(C#N)nc2c1,H37Rv,-,-,MIC,-,>12.5 µg/mL
Cc1cc(C23CC4CC(CC(C4)C2)C3)nc2ccccc12,H37Rv,-,-,MIC,-,>6.25 µg/mL
C=C1CCC[C@]2(C)C[C@H]3OC(=O)C(C)[C@H]3C[C@@H]12,H37Rv,-,-,MIC,-,>128 µg/mL
C=C(C)C(=O)O[C@H]1CC2=C[C@@H](C[C@@]3(C)O[C@H]3[C@H]3OC(=O)C(=C)[C@@H]31)OC2=O,H37Rv,-,BACTEC,MIC bound,-,>12.5 µg/mL
COc1ccc(NC(=O)c2cc(C3C4CC5CC(C4)CC3C5)c3ccccc3n2)cc1,H37Ra,-,BACTEC,inhibition,6.25 µg/mL,35%
Cc1cc(N=C2C=CC(=[N+](C)C)C=C2)c(N)cc1N,H37Rv,-,BACTEC,inhibition,12.5 µg/mL,97%
CCCC(CCC)O/N=C/c1c2c(O)c3c(O)c(C)c4c(c3c1O)C(=O)[C@@](C)(O/C=C/[C@H](OC)[C@@H](C)[C@@H](OC(C)=O)[C@H](C)[C@H](O)[C@H](C)[C@@H](O)[C@@H](C)/C=C/C=C(/C)C(=O)N2)O4,H37Rv,-,-,MIC,-,1 µg/mL
CN(C)CCSCC(=O)N1c2ccccc2Sc2ccccc21.Cl,H37Rv,-,BACTEC,inhibition,12.5 µg/mL,2%
C=C1C(=O)O[C@@H]2C[C@@]3(C)C=C[C@H](O)C(=C)[C@@H]3C[C@H]12,H37Rv,-,-,MIC,-,32 µg/mL
N#Cc1c(N)[n+]([O-])c2cc(F)c(Cl)cc2[n+]1[O-],H37Rv,-,-,MIC,-,<6.25 µg/mL
Cc1nc(NC(=S)NC(=O)c2ccc(Cl)c(Cl)c2)sc1C(=O)C=Cc1ccccc1[N+](=O)[O-],H37Rv,-,resazurin,inhibition,6.25 µg/mL,15%
CO[C@H]1/C=C/O[C@@]2(C)Oc3c(C)c(O)c4c(O)c(c(/C=N/OCCN5CCOCC5)c(O)c4c3C2=O)NC(=O)/C(C)=C\C=C\[C@H](C)[C@H](O)[C@@H](C)[C@@H](O)[C@@H](C)[C@H](OC(C)=O)[C@@H]1C,H37Rv,-,-,MIC,-,0.5 µg/mL
CCCNC(=O)N1C(=O)c2ccccc2S1(=O)=O,H37Rv,-,BACTEC,inhibition,12.5 µg/mL,0%
C=C1C(=O)O[C@@H]2C[C@@]3(C)CCCC(C)=C3C[C@H]12,H37Rv,-,-,MIC,-,32 µg/mL
O=C(/C=C/c1ccccc1)NNC(=O)c1ccncc1,H37Rv,-,resazurin,MIC,-,31.3 µM
CCOC(=O)CN1C(=O)S/C(=C/c2ccc([N+](=O)[O-])o2)C1=O,H37Rv,-,BACTEC,inhibition,12.5 µg/mL,100%
CCOC(=O)Nc1c(C#N)[n+]([O-])c2cc(C)c(C)cc2[n+]1[O-],H37Rv,-,-,inhibition,6.25 µg/mL,99%
N#Cc1nc(CC(=O)c2ccccc2Cl)c(CC(=O)c2ccccc2Cl)nc1C#N,H37Rv,-,BACTEC,MIC,-,≥12.5 µg/mL
C#CCN(CC#C)CCCNc1ccnc2cc(Cl)ccc12,H37Rv,-,resazurin,MIC,-,15.6 µg/mL
Cn1ncc(=O)c(Cl)c1Cl,H37Rv,-,BACTEC,MIC bound,-,>6.25 µg/mL
c1ccc(-c2ccccn2)nc1,H37Rv ATTC 27294,-,broth dilution / resazurin,MIC90,-,169.1 µM
C/C(=N\N=C(N)N)c1c(C)nn(C(=N)N)c1C.Cl.Cl,H37Rv,-,BACTEC,inhibition,12.5 µg/mL,0%
C#CCN(CC#C)CCCCNc1ccnc2cc(Cl)ccc12,H37Rv,-,resazurin,MIC,-,15.6 µg/mL

Repeating the final 4 entries:

smiles | strain | cell line | read by | measure | dose | value
Cn1ncc(=O)c(Cl)c1Cl | H37Rv | - | BACTEC | MIC bound | - | >6.25 µg/mL
c1ccc(-c2ccccn2)nc1 | H37Rv ATTC 27294 | - | broth dilution / resazurin | MIC90 | - | 169.1 µM
C/C(=N\N=C(N)N)c1c(C)nn(C(=N)N)c1C.Cl.Cl | H37Rv | - | BACTEC | inhibition | 12.5 µg/mL | 0%
C#CCN(CC#C)CCCCNc1ccnc2cc(Cl)ccc12 | H37Rv | - | resazurin | MIC | - | 15.6 µg/mL